Tested on: IL-8
Test: U937 cell-based anti-inflammatory assay for influenza virus infection, IL-8 production (AlphaLISA)
Details: Homo sapiens, U-937, 72 h, read-out: IC50 IL-8

`CC[C@@](C)(Nc1ccnc(-c2c[nH]c3ncccc23)n1)C(=O)NCC(F)(F)F` [Decernotinib] gave an IC50 of 20 nM.

Source: paper PMC10989010, “A panel of janus kinase inhibitors identified with anti-inflammatory effects protect mice from lethal influenza virus infection” (Antimicrobial Agents and Chemotherapy, 2024)
